Results of unrelated studies side by side (data: NIAID ChemDB).

All rows: whole-cell or culture tests; agent: Aspergillus flavus; read-out: MIC

Blank or dashed fields: not listed here.

| structure | method | strain | value |
|---|---|---|---|
| CCN1CCC(n2cc(-c3nc(-c4ccccc4)n[nH]3)nn2)CC1 | agar |  | 40 µg/mL |
| CC(C)Cc1ccc(CC2=Cc3[nH][nH]c(=O)c3C(c3ccc(Cl)cc3)C2)cc1 | agar diffusion |  | 50 µg/mL |
| Nc1ccccc1Cc1nc(CN2CCc3sccc3C2)n[nH]1 | agar | NCIM 539 | 150 µg/mL |
| COc1ccc(/C=c2\c(=O)[nH][nH]\c2=C2/C(=O)c3ccccc3N(C)C2=O)cc1OC |  | ATCC 28542 | >100 µg/mL |
| CCC(C)CC(C)CCCCCCCCC(=O)N[C@H]1C[C@@H](O)[C@H](NCCN)NC(=O)[C@@H]2[C@@H](O)CCN2C(=O)[C@H]([C@H](O)CCN)NC(=O)[C@H]([C@H](O)[C@@H](O)c2ccc(O)cc2)NC(=O)[C@@H]2C[C@@H](O)CN2C(=O)[C@H]([C@@H](C)O)NC1=O | broth dilution | 25 | 128 µg/mL |
| COC(=O)/C=C/c1ccccc1 | broth dilution / resazurin |  | 250 µg/mL |
| COc1ccc(C2CC(Cc3ccc(CC(C)C)cc3)=Cc3[nH][nH]c(=O)c32)cc1 | agar diffusion |  | 50 µg/mL |
| Cc1ccc(N=Cc2c(-c3c(O)c4ccccc4n(C)c3=O)[nH][nH]c2=O)cc1 |  | ATCC 28542 | 25 µg/mL |
| c1ccc(N2CCC(n3cc(CN4CCc5sccc5C4)nn3)CC2)cc1 | agar | NCIM 539 | 60 µg/mL |
| Cn1c(=O)c(-c2[nH][nH]c(=O)c2/C=N/c2ncccn2)c(O)c2ccccc21 |  | ATCC 28542 | >100 µg/mL |
| O=C(c1ccc(Cl)cc1)N1CCC(n2cc(-c3nc(-c4ccccc4)n[nH]3)nn2)CC1 | agar |  | >200 µg/mL |
| c1ccc(C(c2ccccc2)c2n[nH]c(CN3CCc4sccc4C3)n2)cc1 | agar | NCIM 539 | 150 µg/mL |
| CN1C(=O)/C(=c2/[nH][nH]c(=O)/c2=C\c2ccc(Cl)cc2)C(=O)c2ccccc21 |  | ATCC 28542 | >100 µg/mL |
| Clc1ccccc1-c1n[nH]c(CN2CCc3sccc3C2)n1 | agar | NCIM 539 | 100 µg/mL |
| CCC(=O)N1CCC(n2cc(-c3nc(-c4ccc(C)cc4)n[nH]3)nn2)CC1 | agar |  | 180 µg/mL |
| COc1ccccc1/C=c1\c(=O)[nH][nH]\c1=C1/C(=O)c2ccccc2N(C)C1=O |  | ATCC 28542 | >100 µg/mL |
| Clc1cccc(-c2n[nH]c(CN3CCc4sccc4C3)n2)c1 | agar | NCIM 539 | 100 µg/mL |
| COc1ccc(-c2n[nH]c(-c3cn(C4CCN(C)CC4)nn3)n2)cc1 | agar |  | 40 µg/mL |
| C[C@H]1[C@H](O)[C@@H](C)/C=C/C=C/C=C/C=C/C=C/C=C/C=C/[C@H](O[C@@H]2O[C@H](C)[C@@H](O)[C@H](N)[C@@H]2O)C[C@@H]2O[C@](O)(C[C@@H](O)C[C@@H](O)CC[C@H](O)[C@@H](O)C[C@@H](O)CC(=O)O[C@H]1C)C[C@H](O)[C@H]2C(=O)O | agar diffusion |  | 22 µg/mL |
| CN1CCC(n2cc(-c3nc(-c4ccc(Cl)cc4)n[nH]3)nn2)CC1 | agar |  | 30 µg/mL |
| O=c1[nH][nH]c2c1C(c1ccc(Cl)cc1)CC(Cc1ccc3ccccc3c1)=C2 | agar diffusion |  | 200 µg/mL |
| Cn1c(=O)c(-c2[nH][nH]c(=O)c2C=Nc2ccc(N)cc2)c(O)c2ccccc21 |  | ATCC 28542 | 50 µg/mL |
| OC(Cn1cncn1)(Cn1cncn1)c1ccc(F)cc1F | agar | NCIM 539 | 5 µg/mL |
| Cn1c(=O)c(-c2[nH][nH]c(=O)c2N=Nc2cccc(Br)c2)c(O)c2ccccc21 |  | ATCC 28542 | 25 µg/mL |
| CC(C)Cc1ccc(CC2=Cc3[nH][nH]c(=O)c3C(c3ccc(F)cc3)C2)cc1 | agar diffusion |  | 12.5 µg/mL |
| CC(C)CC1NC(=O)CC(CCCCCCCCC(C)O)OC(=O)C(CC(C)C)NC(=O)C(CC(C)C)NC(=O)C(CC(C)C)NC(=O)C(C(C)C)NC(=O)C(CC(=O)O)NC(=O)C(CC(C)C)NC1=O | absorbance | ATCC 11496 | 8 µg/mL |

Conditions beyond the fields shown may differ between rows.